Measured values from several laboratories, pooled; numbers as filed in NIAID ChemDB.

Common to all: whole-cell or culture tests; species: Mycobacterium tuberculosis

Conditions beyond the fields shown may differ between rows. ECn is the concentration giving n% inhibition of infection, replication or growth. Percent inhibition refers to the dose given; in toxicity tests it is the harm to the cells. Blank or dashed fields: not listed here. MIC50, MIC90 and the like: level of inhibition, or share of isolates inhibited.

smiles	strain	dose	endpoint	read by	value
Fc1ccc(-c2c(C(c3ccccc3)n3ccnc3)cnn2-c2ccccc2)cc1	ATCC 35828 (pyrazinamide-resistant)		MIC90		≥100 µM
Cc1cccc(N=Nc2c(O)c3cc(-c4ccccc4)ccc3oc2=O)c1	H37Rv		MIC	resazurin	<6.25 µg/mL
CCOC(=O)Nc1cc(Cl)c2nc(-c3cc(OC)c(OC)c(OC)c3)c(-c3cc(OC)c(OC)c(OC)c3)nc2n1	H37Rv		EC50		>12.5 µg/mL
Cc1ccc(C)c(Sc2ncnc3nc[nH]c23)c1	H37Rv		MIC90		>12.5 µg/mL
Fc1ccccc1-n1ncc(C(c2ccccc2)n2ccnc2)c1-c1ccccc1	ATCC 35837 (ethambutol-resistant)		MIC90		≥100 µM
O=C(Nc1ccccc1)c1cc2ccccc2oc1=O	H37Rv		MIC		>100 µg/mL
Clc1ccccc1-c1c(C(c2ccccc2)n2ccnc2)cnn1-c1ccccc1	ATCC 35837 (ethambutol-resistant)		MIC90		>100 µM
COc1cccc(C(=O)O)c1I	H37Rv		MIC		>100 µg/mL
O=C1c2ccccc2-c2nn(C(=O)c3ccccc3)c3cccc1c23	Clinical isolate		MIC	resazurin	8 µg/mL
O=c1[nH]c2c([N+](=O)[O-])cccc2c(O)c1N=Nc1cccc(Cl)c1	H37Rv		MIC	resazurin	<6.25 µg/mL
O=C(/N=C/c1ccc([N+](=O)[O-])cc1)NCCCN1c2ccccc2Sc2ccccc21	H37Rv	50 µg/mL	inhibition	agar	55%
Cc1cccc(C)c1Sc1ncnc2nc[nH]c12	H37Rv	6.25 µg/mL	inhibition		0%
O=C(NCCCN1c2ccccc2Sc2ccccc21)N1C(=O)/C(=C\c2ccc(Br)cc2)SC1c1ccc(Br)cc1	H37Rv	25 µg/mL	inhibition	agar	30%
CCCOC(=O)c1ccc(O)cc1	H37Rv		MIC		12.5 µg/mL
Fc1ccc(-n2ncc(C(c3ccccc3)n3ccnc3)c2-c2ccccc2)c(F)c1	ATCC 35820 (streptomycin-resistant)		MIC90		≥100 µM
CCOC(=O)NC	H37Rv		MIC		>100 µg/mL
Cc1ccc(NC(=O)c2ccc(Cl)cc2Cl)cc1Cl	H37Rv	12.5 µg/mL	inhibition	BACTEC	66%
O=C(N[C@H](CO)[C@H](O)c1ccc([N+](=O)[O-])cc1)C(Cl)Cl	H37Rv		MIC		12.5 µg/mL
CC(C)N=c1cc2n(-c3ccc(Cl)cc3)c3ccccc3nc-2cc1Nc1ccc(Cl)cc1	MDR8		MIC	broth dilution / resazurin	4 µg/mL
Clc1cccc(Sc2nc(Cl)nc3nc[nH]c23)c1	H37Ra		MIC		>12.8 µg/mL
C[C@H]1COc2c(N3CCN(C)CC3)c(F)cc3c(=O)c(C(=O)O)cn1c23	Strain 40		MIC		0.25 µg/mL
C=NC(N)=S	H37Rv		MIC		>100 µg/mL
O=C(/C=C/c1ccccc1)c1cc(I)ccc1O	H37Rv		MIC		>12.5 µg/mL
c1ccc(CSc2ccccn2)cc1	H37Rv		MIC90		>6.25 µg/mL
O=C(/C=C/c1ccccc1)c1cccc(I)c1O	H37Rv		MIC		>12.5 µg/mL
CCOC(=O)Nc1cc(N)c2[nH]c(C)nc2n1	H37Rv	12.5 µg/mL	inhibition		0%
O=C(/C=C/c1ccccc1)c1ccccc1O	H37Rv		MIC		>12.5 µg/mL
Cc1ccccc1C1SCC(=O)N1C(=O)NCCCN1c2ccccc2Sc2ccccc21	H37Rv	50 µg/mL	inhibition	agar	45%
O=C(Nc1cccc(Cl)c1)C(=O)Nc1cccc(Cl)c1	H37Rv		MIC		>100 µg/mL
NNC(=O)c1ccncc1	Strain 34		MIC		0.125 µg/mL
Oc1ccc(Cl)c(O)c1	H37Rv		MIC		50 µg/mL
CCOC(=O)Nc1cc(NCCc2ccc(S(=O)(=O)N(CC)CC)cc2)c2nccnc2n1	H37Rv		EC50		>12.5 µg/mL
COc1cccc(Sc2nc(Cl)nc3nc[nH]c23)c1	H37Rv	6.25 µg/mL	inhibition		0%
COc1ccc2nc(C(F)(F)C(F)(F)F)c(C#N)c(N)c2c1	18b		MIC	resazurin	2 µg/mL
CCn1c2ccccc2c2cc(N)ccc21	H37Rv		MIC		100 µg/mL
Clc1ccc(-n2ncc(C(c3ccccc3)n3ccnc3)c2-c2ccccc2)cc1	ATCC 35820 (streptomycin-resistant)		MIC90		≥100 µM
O=C1CSC(c2cccc(Br)c2)N1C(=O)NCCCN1c2ccccc2Sc2ccccc21	H37Rv	25 µg/mL	inhibition	agar	32%
CCOC(=O)C1CSCC1=O	H37Rv		MIC		>100 µg/mL
CO[C@H]1/C=C/O[C@@]2(C)Oc3c(C)c(O)c4c(O)c(c(/C=N/N5CCN(C6CCCC6)CC5)c(O)c4c3C2=O)NC(=O)/C(C)=C\C=C\[C@H](C)[C@H](O)[C@@H](C)[C@@H](O)[C@@H](C)[C@H](OC(C)=O)[C@@H]1C	1028		MIC		0.08 µg/mL
COc1ccc(-c2cc(=O)c3ccccc3o2)cc1	H37Rv		MIC		>12.5 µg/mL
CC1COc2c(N3CCN(C)CC3)c(F)cc3c(=O)c(C(=O)O)cn1c23	ATCC 35822 (isoniazid-resistant)		MIC50		1.6 µM
COCc1cc(C)nc(N/N=C/c2cc(OC)ccc2OC)c1C#N	Clinical isolate		MIC	resazurin	16 µg/mL
O=C(O)c1ccc(Cc2ccc(C(=O)O)cc2[N+](=O)[O-])c([N+](=O)[O-])c1	H37Rv		MIC		>100 µg/mL
CC(=O)c1c(C)[nH]c(C(=O)N/N=C/c2cccc([N+](=O)[O-])c2)c1C	H37Rv	6.25 µg/mL	inhibition	resazurin	18%
CCn1c(C)c(C(=O)NCCOC)sc1=S	Clinical isolate		MIC	resazurin	16 µg/mL
O=C(NCCCCN1CCCCC1)NCCCCN1CCCCC1	H37Rv		MIC		>100 µg/mL
CC(=O)c1c(C)[nH]c(C(=O)N/N=C/c2ccc([N+](=O)[O-])cc2)c1C	H37Rv		MIC	resazurin	<6.25 µg/mL
CN1c2ccccc2CCC1CCc1ccc2c(c1)OCO2	MT10		MIC		>339 µg/mL
Nc1cccc(/C=C/C(=O)c2ccccc2O)c1	H37Rv		MIC		>12.5 µg/mL
CCCCCc1cc(OC)c2ccccc2n1	MT10		MIC		50 µg/mL
Fc1ccccc1-c1c(C(c2ccccc2)n2ccnc2)cnn1-c1ccccc1	ATCC 35820 (streptomycin-resistant)		MIC90		≥100 µM
O=[As]([O-])(O)c1ccc(NCCO)cc1.[Na+]	H37Rv		MIC		>100 µg/mL
CO[C@H]1/C=C/O[C@@]2(C)Oc3c(C)c(O)c4c(O)c(c(/C=N/N5CCN(C)CC5)c(O)c4c3C2=O)NC(=O)/C(C)=C\C=C\[C@H](C)[C@H](O)[C@@H](C)[C@@H](O)[C@@H](C)[C@H](OC(C)=O)[C@@H]1C	PR455		MIC		0.04 µg/mL
COc1ccc(/C=N/n2c(C)ccc2C)cc1	H37Rv		MIC		>100 µg/mL
Cc1ccc(Cl)cc1N=c1c([N+](=O)[O-])nn(-c2ccccc2)n1O	Clinical isolate		MIC	resazurin	16 µg/mL
N#Cc1ccc(C(=O)c2ccccc2C(=O)O)cc1[N+](=O)[O-]	H37Rv		MIC		>100 µg/mL
CCOC(=O)Nc1cc(NCC(=O)CNc2ccc(C(=O)OCC)cc2)c([N+](=O)[O-])c(N)n1	H37Rv		EC50		>12.5 µg/mL
CN(C)CCCCCCCCOc1ccccc1	H37Rv		MIC		>100 µg/mL
CCOC(=O)Nc1cc(NC(C)C(=O)c2ccccc2)c([N+](=O)[O-])c(N)n1	H37Rv		EC50		>12.5 µg/mL
N#CCC(=O)N(C(N)=O)c1ccccc1	H37Rv		MIC		>100 µg/mL
O=C(/N=C/c1ccccc1[N+](=O)[O-])NCCCN1c2ccccc2Sc2ccccc21	H37Rv	50 µg/mL	inhibition	agar	66%
O=C(O)c1cccc2cccc(Br)c12	H37Rv		MIC		>100 µg/mL
O=C(NCC(c1cccs1)N1CCCCC1)c1cccs1	Clinical isolate		MIC	resazurin	16 µg/mL
CC(=O)Oc1ccc(S(=O)(=O)[O-])cc1.[Na+]	H37Rv		MIC		>100 µg/mL
Cc1ccc(Sc2ccncc2)cc1	H37Ra		MIC		>12.8 µg/mL
Fc1ccc(-c2c(C(c3ccccc3)n3ccnc3)cnn2-c2ccc(F)cc2F)cc1	ATCC 35837 (ethambutol-resistant)		MIC90		≥100 µM
CC(=O)SCC(=O)Nc1cc(C)ccc1O	H37Rv		MIC		100 µg/mL

4 of the rows above, restated:

CCOC(=O)Nc1cc(NCCc2ccc(S(=O)(=O)N(CC)CC)cc2)c2nccnc2n1 ; strain: H37Rv ; endpoint: EC50 ; value: >12.5 µg/mL
O=C(/N=C/c1ccc([N+](=O)[O-])cc1)NCCCN1c2ccccc2Sc2ccccc21 ; strain: H37Rv ; dose: 50 µg/mL ; endpoint: inhibition ; read by: agar ; value: 55%
Cc1ccc(C)c(Sc2ncnc3nc[nH]c23)c1 ; strain: H37Rv ; endpoint: MIC90 ; value: >12.5 µg/mL
O=C(NCCCN1c2ccccc2Sc2ccccc21)N1C(=O)/C(=C\c2ccc(Br)cc2)SC1c1ccc(Br)cc1 ; strain: H37Rv ; dose: 25 µg/mL ; endpoint: inhibition ; read by: agar ; value: 30%